Pooled drug test results. Numbers come from NIAID ChemDB, via PubChem.

Shared fields: target-level tests; target: CCR5; read-out: IC50

Blank or dashed fields: not listed here. ICn is the concentration giving n% inhibition. Lines come from different laboratories, so protocols vary.

CN(C[C@@H](CCN1CCC2(CC1)CS(=O)c1ccccc12)c1ccc(Cl)c(Cl)c1)C(=O)Nc1ccccc1 ; method: radioligand binding / binding ; value: >10 µM
CCCNC(=O)N(CCCN1CCC(Cc2ccccc2)CC1)c1ccccc1 ; method: radiometric ; value: 0.062 µM
O=C1CC(C(=O)N(CCCN2CCC(Cc3ccccc3)CC2)c2ccccc2)CN1c1ccccc1 ; method: radiometric ; value: <1 µM
CN(C[C@@H](CCN1CCC2(CC1)CS(=O)c1ccccc12)c1ccc(Cl)c(Cl)c1)C(=O)OC(C)(C)C ; method: radioligand binding / binding ; value: >1 µM
CN1CC(C(=O)N(CCCN2CCC(Cc3ccccc3)CC2)c2cccc(Cl)c2)CC1=O ; method: radiometric ; value: <1 µM
CN(C[C@@H](CCN1CCC2(CC1)CS(=O)c1ccccc12)c1ccc(Cl)c(Cl)c1)S(=O)(=O)c1ccc(-c2ccccn2)s1 ; method: radioligand binding / binding ; value: 0.02 µM
CC(=O)N1CCC(C(=O)N(CCN2CCC(Cc3ccc(F)cc3)CC2)c2ccc(Cl)c(Cl)c2)CC1 ; method: radiometric ; value: 0.48 µM
O=C(Nc1ccccc1)N(CCCN1CCC(Cc2ccccc2)CC1)c1ccccc1 ; method: radiometric ; value: 0.018 µM
CCCOc1ccc(-c2ccc3c(c2)C=C(C(=O)Nc2ccc(CN(C)C4CCOCC4)cc2)CCS3(=O)=O)cc1 ; method: radiometric ; value: 0.035 µM
O=C(Cc1ccccc1)N(CCCN1CCC(Cc2ccccc2)CC1)c1ccccc1 ; method: radiometric ; value: 0.45 µM
CN(C[C@@H](CCN1CCC2(CC1)CS(=O)c1ccccc12)c1ccc(Cl)c(Cl)c1)S(=O)(=O)c1ccc2c(c1)CCC2 ; method: radioligand binding / binding ; value: 0.07 µM
O=C1CC(C(=O)N(CCCN2CCC(Cc3ccccc3)CC2)c2ccccc2)CN1Cc1ccccc1 ; method: radiometric ; value: <1 µM
CC(C)c1ccc(-c2ccc3c(c2)C=C(C(=O)Nc2ccc(CN(C)C4CCOCC4)cc2)CCS3(=O)=O)cc1 ; method: radiometric ; value: 0.12 µM
O=S(=O)(c1ccccc1)N1C[C@@H](CN2CCC(c3ccccc3)CC2)[C@](O)(c2ccccc2)C1 ; method: radiometric ; value: ~10 µM
CCN(C(=O)Cc1ccc(S(C)(=O)=O)cc1)C1CCN(CCC(c2ccccc2)C2CCN(S(=O)c3ccccc3)CC2)CC1 ; method: radiometric ; value: 0.001 µM
C=C(C)[C@H]1CC[C@@]2(C)CC[C@]3(C)C[C@@H]4[C@H](/C(CO)=C\C[C@H]3[C@H]12)[C@H](O)C[C@@H]4C ; method: radiometric ; value: >33 µM
CN(C[C@@H](CCN1CCC2(CC1)CS(=O)c1ccccc12)c1ccc(Cl)c(Cl)c1)S(=O)(=O)c1ccc(-c2ccon2)s1 ; method: radioligand binding / binding ; value: 0.02 µM
CN1CC(C(=O)N(CCCCCN2CCC(C(=O)c3ccc(F)cc3)CC2)c2ccccc2)CC1=O ; method: radiometric ; value: 5 µM
CCN(C(=O)Cc1ccc(S(C)(=O)=O)cc1)C1CCN(CCC(c2ccccc2)N2CCN(S(=O)(=O)CC(F)(F)F)CC2)CC1 ; method: radiometric ; value: 0.006 µM
CCCCOCCOc1ccc(-c2ccc3c(c2)C=C(C(=O)Nc2ccc([S@@](=O)Cc4cncn4CCC)cc2)CCN3CCC)cc1 ; method: radiometric ; value: 0.0017 µM
C=CCN(C1CCN(C[C@H]2CN(C(=O)C3CCCC3)C[C@]2(O)c2ccccc2)CC1)S(=O)(=O)c1ccc(C)cc1 ; method: radiometric ; value: 0.0534 µM
C/C=C(\C)[C@@H]1C=C[C@@H]2C[C@H](C)C[C@H](C)[C@H]2[C@@H]1C(=O)C1=C(O)[C@@H](CC[C@@](C)(O)C(=O)O)CC1=O ; method: binding ; value: 0.0786 µM
COCCOc1ccc(-c2ccc3c(c2)C=C(C(=O)Nc2ccc(CN(C)C4CCOCC4)cc2)CCS3(=O)=O)cc1 ; method: radiometric ; value: 0.14 µM
C=C(C)[C@H]1CC[C@@]2(C)CC[C@]3(C)C[C@@H]4[C@H](/C(C=O)=C\C[C@H]3[C@H]12)[C@H](O)C[C@@H]4C ; method: radiometric ; value: >33 µM
CCN1CCC(C(=O)Nc2ccc(CN(C)C3CCOCC3)cc2)=Cc2cc(-c3ccc(N4CCOCC4)cc3)ccc21 ; method: radiometric ; value: 0.051 µM
CN1CC(C(=O)N(CCCN2CCC3(C=Cc4ccccc43)CC2)c2ccccc2)CC1=O ; method: radiometric ; value: >1 µM
Cc1ccc(-c2ccc3c(c2)C=C(C(=O)Nc2ccc(CN(C)C4CCOCC4)cc2)CCS3(=O)=O)cc1 ; method: radiometric ; value: 0.2 µM
COc1ccc(N(CCCN2CCC(Cc3ccc(F)cc3)CC2)C(=O)C2CCN(C(C)=O)CC2)cc1Cl ; method: radiometric ; value: 0.03 µM
CCCCOCCOc1ccc(-c2ccc3c(c2)C=C(C(=O)Nc2ccc(S(=O)Cc4cccnn4)cc2)CCN3CC(C)C)cc1 ; method: radiometric ; value: 0.022 µM
CS(=O)(=O)N1CCC(C(=O)N(CCCN2CCC(Cc3ccccc3)CC2)c2ccccc2)CC1 ; method: radiometric ; value: 0.04 µM
C=CCN(C(=O)OCc1ccc([N+](=O)[O-])cc1)C1CCN(C[C@@H]2CN(C(=O)C3CCCC3)C[C@@]2(O)c2ccccc2)CC1 ; method: radiometric ; value: 0.386 µM
CCCCOCCOc1ccc(-c2ccc3c(c2)C=C(C(=O)Nc2ccc(S(=O)Cc4nccn4C)cc2)CCN3CC(C)C)cc1 ; method: radiometric ; value: 0.014 µM
CCCCOCCOc1ccc(-c2ccc3c(c2)C=C(C(=O)Nc2ccc(CN(C)C4CCOCC4)cc2)CCN3Cc2ccccc2)cc1 ; method: radiometric ; value: 0.0053 µM
O=S1CC2(CCN(CC[C@H](COCc3ccccc3)c3ccc(Cl)c(Cl)c3)CC2)c2ccccc21 ; method: radioligand binding / binding ; value: >1 µM
CCN(C(=O)Cc1ccc(S(C)(=O)=O)cc1)C1CCN(CCC(c2ccccc2)N2CCN(S(=O)(=O)c3ccccc3)CC2)CC1 ; method: radiometric ; value: 0.01 µM
CN1CC(C(=O)N(CCCN2CCC(Cc3ccc(F)cc3)CC2)c2ccccc2)CC1=O ; method: radiometric ; value: 0.31 µM
CS(=O)(=O)N1CCC(C(=O)N(CCCN2CCC(Cc3ccc(C(F)(F)F)cc3)CC2)c2ccc(Cl)c(Cl)c2)CC1 ; method: radiometric ; value: 0.0087 µM
CCCCOCCOc1ccc(-c2ccc3c(c2)C=C(C(=O)Nc2ccc(S(=O)Cc4cnccn4)cc2)CCN3CC(C)C)cc1 ; method: radiometric ; value: 0.046 µM
CC(=O)N1CCC(C(=O)N(CCCN2CCC(Cc3ccccc3)CC2)c2ccc(C)c(Cl)c2)CC1 ; method: radiometric ; value: 0.00062 µM
c1ccc2c(NCc3ccc(CN4CCCNCCNCCCNCC4)cc3)cccc2c1 ; method: fluorescence ; value: <10 µM
CC(=O)N1CCC(C(=O)N(CCCN2CCC(Cc3ccccc3)CC2)c2ccc(Cl)c(Cl)c2)CC1 ; method: radiometric ; value: 0.0019 µM
CCCCOCCOc1ccc(-c2ccc3c(c2)C=C(C(=O)Nc2ccc(S(=O)Cc4ccccn4)cc2)CCN3CC(C)C)cc1 ; method: radiometric ; value: 0.038 µM
CC(C)=CC[C@@H](O)C1=CC(=O)c2c(O)ccc(O)c2C1=O ; value: <1 µM
CCCCOCCOc1ccc(-c2ccc3c(c2)C=C(C(=O)Nc2ccc(S(=O)Cc4nccs4)cc2)CCN3CC(C)C)cc1 ; method: radiometric ; value: 0.043 µM
CCCOCCOc1ccc(-c2ccc3c(c2)C=C(C(=O)Nc2ccc(CN(C)C4CCOCC4)cc2)CCN3C)cc1 ; method: radiometric ; value: 0.068 µM
O=C1CC(C(=O)N(CCCN2CCC(Cc3ccccc3)CC2)c2ccccc2)CN1CC(F)(F)F ; method: radiometric ; value: <1 µM
CCO/N=C(\c1ccc(Br)cc1)C1CCN(C2(C)CCN(C(=O)c3c(C)cc[n+]([O-])c3C)CC2)CC1 ; method: fluorescence ; value: >1 µM
CN1CC(C(=O)N(CCCN2CCC(Cc3ccccc3)CC2)c2ccc(Cl)c(Cl)c2)CC1=O ; method: radiometric ; value: <1 µM
CCCCOCCOc1ccc(-c2ccc3c(c2)C=C(C(=O)Nc2ccc(CN(C)C4CCOCC4)cc2)CCN3CC2CCCCC2)cc1 ; method: radiometric ; value: 0.014 µM

The last 7 rows once more:

SMILES | method | value
CC(C)=CC[C@@H](O)C1=CC(=O)c2c(O)ccc(O)c2C1=O |  | <1 µM
CCCCOCCOc1ccc(-c2ccc3c(c2)C=C(C(=O)Nc2ccc(S(=O)Cc4nccs4)cc2)CCN3CC(C)C)cc1 | radiometric | 0.043 µM
CCCOCCOc1ccc(-c2ccc3c(c2)C=C(C(=O)Nc2ccc(CN(C)C4CCOCC4)cc2)CCN3C)cc1 | radiometric | 0.068 µM
O=C1CC(C(=O)N(CCCN2CCC(Cc3ccccc3)CC2)c2ccccc2)CN1CC(F)(F)F | radiometric | <1 µM
CCO/N=C(\c1ccc(Br)cc1)C1CCN(C2(C)CCN(C(=O)c3c(C)cc[n+]([O-])c3C)CC2)CC1 | fluorescence | >1 µM
CN1CC(C(=O)N(CCCN2CCC(Cc3ccccc3)CC2)c2ccc(Cl)c(Cl)c2)CC1=O | radiometric | <1 µM
CCCCOCCOc1ccc(-c2ccc3c(c2)C=C(C(=O)Nc2ccc(CN(C)C4CCOCC4)cc2)CCN3CC2CCCCC2)cc1 | radiometric | 0.014 µM